The data set deals with CC(=O)N[C@H]1[C@H](Oc2ccc3c(C)cc(=O)oc3c2)O[C@H](CO)[C@@H](O)[C@@H]1O. As to the kind of experiment: purified protein. The note with it: pH 7.5; 37.0 °C.

The values that follow come from article PMC6572805.

On to “LpqI (LpqITB) (Mycobacterium tuberculosis H37Rv)”, for which the Km (in general, the concentration of substrate that gives half-maximal velocity) was determined as 72 ± 5 µM.
